Results of unrelated studies side by side (data: NIAID ChemDB).

Shared fields: growth or infection tests; species: HIV-1; cell line: MT-4; measure: fold resistance

Fold resistance: result on the changed form divided by that on wild type.

structure,strain or isolate,changes,method,value
O=c1[nH]cnc2c1ncn2[C@H]1CC[C@@H](CO)O1,118(RT-L100I),RT-L100I,cytopathic effect / XTT,0.802
CC(C)CN(C[C@@H](O)[C@H](Cc1ccccc1)NC(=O)[C@H](CC(N)=O)NC(=O)c1ccc2ccccc2n1)C(=O)NC(C)(C)C,NL4-3,PR-L10R,p24,0.5
CNc1cccc2c1nc(-c1c(F)cccc1F)n2Cc1c(F)cccc1F,-,RT-Y181C,cytopathic effect / MTT,1.58
CC(C)[C@H](NC(=O)N(C)Cc1ccccn1)C(=O)N[C@@H](Cc1ccccc1)[C@H](O)[C@H](O)[C@H](Cc1ccccc1)NC(=O)[C@@H](NC(=O)N(C)Cc1ccccn1)C(C)C,NL4-3,PR-M46I,p24,1
CCc1cc(CCc2nc3ccccc3o2)c(=O)[nH]c1C,IIIB-R (RT-Y181C),RT-Y181C,cytopathic effect / MTT,8550
Nc1ccn([C@H]2CC[C@@H](CO)O2)c(=O)n1,22(RT-L100I Y188H),RT-L100I Y188H,cytopathic effect / XTT,0.15
CC(C)CN(C[C@@H](O)[C@H](Cc1ccccc1)NC(=O)O[C@H]1CCOC1)S(=O)(=O)c1ccc(N)cc1,NL4-3,L10F V32I M46I I45M A71V I84V APV resistant,-,>13
CC(C)=CCOCn1c(Cc2cc(C)cc(C)c2)c(C(C)C)c(=O)[nH]c1=O,IIIB,RT-K103N Y181C,cytopathic effect / MTT,173333
O=C(Oc1nsnc1-c1c(Cl)cccc1Cl)N1CCCCC1,IIIB-R (RT-Y181C),RT-Y181C,cytopathic effect / MTT,>230
Cc1cn([C@H]2C[C@H](N=[N+]=[N-])[C@@H](CO)O2)c(=O)[nH]c1=O,NL4-3,RT A62V 69SS K70R E79K V118I M184V E203K L210W T215Y,cytopathic effect,>1500
CCc1cc(NCc2nc3c(Cl)ccc(Cl)c3o2)c(=O)[nH]c1C,HXBE30(RT-P236L),RT-P236L,antigen,<0.1
CC(C)CN(C[C@@H](O)[C@H](Cc1ccccc1)NC(=O)O[C@H]1CO[C@H]2OCC(F)(F)[C@H]21)S(=O)(=O)c1ccc(N)cc1,NL4-3,L10F M46I I54V V82A LPV resistant,-,8
CCCc1nnc(C[C@H](C[C@H](O)CN2CCN(Cc3ccc(-c4ccc(Cl)cc4)o3)C[C@H]2C(=O)NCC(F)(F)F)C(=O)N[C@H]2c3ccccc3OC[C@H]2O)o1,Q-60 Clinical isolate,PR-L10I N37S R41K M46I I54V I62V L63P A71V V77I V82A L90M I93L,p24,≥2
Nc1cccc2c1nc(-c1c(F)cccc1F)n2Cc1c(F)cccc1F,-,RT-L100I,cytopathic effect / MTT,0.6
CCCCCCCSc1nsc(NC(=O)Nc2ccccc2)n1,NL4-3,DS-resistant,cytopathic effect,1.32
CCN[C@H]1CO[C@@H]2OCC[C@H](OC(=O)N[C@@H](Cc3cccc(OC)c3)[C@H](O)CN(CC(C)C)S(=O)(=O)c3ccc4nc(NC(C)C)sc4c3)[C@@H]21,NL4-3,L23I E34Q K43I M46I I50L G51A L63P A71V V82A T91A,p24 / luminescence,0.9
CC(=O)Nc1cccc2c1nc(-c1c(F)cccc1F)n2Cc1c(F)cccc1F,-,RT-K101E,cytopathic effect / MTT,>40
CNc1cccc2c1nc(-c1c(F)cccc1F)n2Cc1c(F)cccc1F,-,RT-Y181C,cytopathic effect / MTT,1.58
Cc1nnc(C[C@H](C[C@H](O)CN2CCN(C(C)(C)c3ncc(-c4ccc(Cl)cc4)o3)C[C@H]2C(=O)NCC(F)(F)F)C(=O)N[C@H]2c3ccccc3OC[C@H]2O)o1,K-60 Clinical isolate,PR-L10I M46I I54V Q58E L63P I64V V77I V82F I84V L90M I93L,p24,0.124
Cc1ccnc2c1NC(=O)c1cccnc1N2C1CC1,1506-RS (RT-Y188L),RT-Y188L,cytopathic effect / MTT,>588
CC(C)(c1ncc(-c2ccc(F)cc2)o1)N1CCN(C[C@@H](O)C[C@@H](Cc2nnc(-c3ccccc3)o2)C(=O)N[C@H]2c3ccccc3OC[C@H]2O)[C@H](C(=O)NCC(F)(F)F)C1,V-18 Clinical isolate,PR-L10I M36I N37D M46I R57K L63P A71V G73S I84V L90M I93L,p24,≥7.875
Cc1cc(C)cc(S(=O)(=O)c2c(C(=O)N[C@@H](C)c3ccccc3)[nH]c3ccc(Cl)cc23)c1,NL4-3,Y188L,MTT,>5778
Fc1cccc(F)c1Cn1c(-c2c(F)cccc2F)nc2c(Br)cccc21,-,RT-L100I,cytopathic effect / MTT,0.6
CC(=O)Oc1ccc(/C=C/C(=O)O[C@@H](C(=O)O)[C@@H](OC(=O)/C=C/c2ccc(OC(C)=O)c(OC(C)=O)c2)C(=O)O)cc1OC(C)=O,NL4-3,AMD3100-resistant,-,>9.25
CC(C)(C)NC(=O)[C@@H]1C[C@@H]2CCCC[C@@H]2CN1C[C@@H](O)[C@H](Cc1ccccc1)NC(=O)[C@H](CC(N)=O)NC(=O)c1ccc2ccccc2n1,NL4-3,PR-M46I V82T I84V,p24,2
COc1ccc(S(=O)(=O)N(CC(C)C)C[C@@H](O)[C@H](Cc2ccc(OC)c(Cl)c2)NC(=O)O[C@H]2CO[C@H]3OCC[C@H]32)cc1,NL4-3,L23I E34Q K43I M46I I50L G51A L63P A71V V82A T91A,p24 / luminescence,6
CC(=O)Nc1cccc2c1nc(-c1c(F)cccc1F)n2Cc1c(F)cccc1F,-,RT-L100I,cytopathic effect / MTT,16
C[C@H](Cn1cnc2c(N)ncnc21)OCP(=O)(O)O,NL4-3,K65R,cytopathic effect / XTT / absorbance,2.3
Cc1cn([C@H]2C[C@H](N=[N+]=[N-])[C@@H](CO)O2)c(=O)[nH]c1=O,T3-16(RT-Y181C),RT-Y181C,cytopathic effect / XTT,0.6
Nc1ccn([C@H]2CC[C@@H](CO)O2)c(=O)n1,IIIB,ddI-2-resistant,-,1.89
O=c1[nH]cnc2c1ncn2[C@H]1CC[C@@H](CO)O1,XM-T69SSS,RT-T69SSS L210W T215Y,p24,1.3
CC(=O)c1ccc(S(=O)(=O)N(CC(C)C)C[C@@H](O)[C@H](Cc2ccccc2)NC(=O)O[C@H]2CO[C@H]3OCC[C@H]32)cc1,PI RES(PR-L10M/I K20R M36I A71V G73S V77I I84V L90M) M2,PR-L10M/I K20R M36I A71V G73S V77I I84V L90M,cytopathic effect / MTT,8.7
O=C1N(Cc2ccc(CO)cc2)[C@H](COc2ccccc2)[C@H](O)[C@@H](O)[C@@H](COc2ccccc2)N1Cc1ccc(CO)cc1,IIIB,PR-I84V,cytopathic effect / XTT,13.6
CN[C@H]1CO[C@@H]2OCC[C@H](OC(=O)N[C@@H](Cc3ccccc3)[C@H](O)CN(CC(C)C)S(=O)(=O)c3ccc4nc(NC5CC5)sc4c3)[C@@H]21,NL4-3,L10I L33I M36I M46I I54V K55R I62V L63P A71V G73S V82T L90M I93L,p24 / luminescence,9
COc1ccc(S(=O)(=O)N(CC(C)C)C[C@@H](O)[C@H](Cc2ccccc2)NC(=O)O[C@H]2CO[C@H]3OCC(F)(F)[C@H]32)cc1,NL4-3,L10F M46I I54V V82A LPV resistant,-,66
CN[C@H]1CO[C@@H]2OCC[C@H](OC(=O)N[C@@H](Cc3cccc(OC)c3)[C@H](O)CN(CC(C)C)S(=O)(=O)c3ccc4nc(NC(C)C)sc4c3)[C@@H]21,NL4-3,L10I M46L I54V V82A,p24 / luminescence,0.4
Cc1cc(C)cc(Cc2c(CC(C)C)c(C)[nH]c(=O)c2N(C)C)c1,Recombinant,RT-Y181C,cytopathic effect / MTT,78.7
CCCCN(CC)C(=O)Oc1nsnc1-c1c(Cl)cccc1Cl,IIIB-R (RT-Y181C),RT-Y181C,cytopathic effect / MTT,>133
COc1ccc2c(c1)N(C(=O)OC(C)C)[C@@H](CSC)C(=S)N2,Recombinant,RT-V106A,cytopathic effect,13
N#Cc1ccc(Nc2nc(N)nc(Cc3c(Cl)cccc3Cl)n2)cc1,NNRTI-resistant (RT K103N Y181C),RT-K103N Y181C,cytopathic effect / MTT,233
CC(C)=CCN1Cc2cc(Cl)cc3[nH]c(=O)n(c23)C[C@@H]1C,Recombinant,RT-V106A,cytopathic effect,17
Cc1ccnc2c1NC(=O)c1cccnc1N2C1CC1,IIIB-R (RT-Y181C),RT-Y181C,cytopathic effect / MTT,2910
COc1c(O)c(I)c2c(c1OC)-c1c(c(I)c(O)c(OC)c1OC)C[C@H](C)[C@H](C)C2,TIBO-resistant L100I (RT-L100I),RT-L100I,cytopathic effect / MTT,2.54
CCN(C)C(=O)Oc1nsnc1-c1c(Cl)cccc1Cl,IIIB-R (RT-Y181C),RT-Y181C,cytopathic effect / MTT,151
CC(C)=CCN1Cc2cccc3[nH]c(=S)n(c23)C[C@@H]1C,A17,RT-K103N Y181C,cytopathic effect / MTT,>556
CCN[C@H]1CO[C@@H]2OCC[C@H](OC(=O)N[C@@H](Cc3ccccc3)[C@H](O)CN(CC(C)C)S(=O)(=O)c3ccc4nc(NC5CC5)sc4c3)[C@@H]21,NL4-3,L10I N37D G48V I54V L63P G73C I84V L90M,p24 / luminescence,1.3
Cc1cn([C@H]2C[C@H](N=[N+]=[N-])[C@@H](CO)O2)c(=O)[nH]c1=O,XM-ABC-resistant,RT-K65R L74V M184V Y115F,p24,2
CC(C)(c1ncc(-c2ccc(Cl)cc2)o1)N1CCN(C[C@@H](O)C[C@@H](Cc2nnc(-c3ccccc3)o2)C(=O)N[C@H]2c3ccccc3OC[C@H]2O)[C@H](C(=O)NCC(F)(F)F)C1,Q-60 Clinical isolate,PR-L10I N37S R41K M46I I54V I62V L63P A71V V77I V82A L90M I93L,p24,≥2
CCCc1c(C)[nH]c(=O)c(N(C)C)c1Cc1cc(C)cc(C)c1,Recombinant,RT-Y181C,cytopathic effect / MTT,1.99
CC(=O)Oc1ccc(/C=C/C(=O)O[C@H](C(=O)O)[C@H](OC(=O)/C=C/c2ccc(OC(C)=O)c(OC(C)=O)c2)C(=O)O)cc1OC(C)=O,NL4-3,AMD2763-resistant,cytopathic effect / MTT,>12
COC(=O)N[C@H](C(=O)N[C@@H](Cc1ccccc1)[C@@H](O)CN(Cc1ccc(-c2ccccn2)cc1)NC(=O)[C@@H](NC(=O)OC)C(C)(C)C)C(C)(C)C,NL4-3,L10F M46I I54V V82A,p24 / luminescence,21
COC(=O)N[C@@H](Cc1c[nH]c2ccccc12)C(=O)NCCCC[C@@H](CO)N(CC(C)C)S(=O)(=O)c1ccc(N)cc1,NL4-3,PR-M46I V82T I84V 10R 63P,cytopathic effect / MTT,3.6
COc1cncc(-c2cnc(C(C)(C)N3CCN(C[C@@H](O)C[C@@H](Cc4nnc(-c5ccccc5)o4)C(=O)N[C@H]4c5ccccc5OC[C@H]4O)[C@H](C(=O)NCC(F)(F)F)C3)o2)c1,Q-60 Clinical isolate,PR-L10I N37S R41K M46I I54V I62V L63P A71V V77I V82A L90M I93L,p24,4
Cc1cc(S(N)(=O)=O)ccc1NC(=O)COc1ccc(Cl)cc1C(=O)c1cccc(C#N)c1,Nevirapine-resistant,RT-Y181C,cytopathic effect / MTS,2
CN(C)C(=O)Oc1nsnc1-c1ccc(Cl)cc1Cl,IIIB-R (RT-Y181C),RT-Y181C,cytopathic effect / MTT,>9.28
COc1ccc(S(=O)(=O)O)cc1N=Nc1c(S(=O)(=O)O)cc2cc(Nc3nc(Nc4ccccc4)nc(Nc4cc(C)c(N=Nc5cc(S(=O)(=O)O)cc6cc(S(=O)(=O)O)cc(O)c56)cc4OC)n3)ccc2c1O,NL4-3,GP41-L33S,cytopathic effect / MTT,0.5
CC(C)(c1ncc(-c2ccc(Cl)cc2)o1)N1CCN(C[C@@H](O)C[C@@H](Cc2nnco2)C(=O)N[C@H]2c3ccccc3OC[C@H]2O)[C@H](C(=O)NCC(F)(F)F)C1,V-18 Clinical isolate,PR-L10I M36I N37D M46I R57K L63P A71V G73S I84V L90M I93L,p24,0.504
Cc1cc(C#N)cc(C)c1Oc1nc(Nc2ccc(C#N)cc2)ncc1SCC(=O)N1CCSCC1,-,F227L V106A,MTT,28.5
CCOCn1c(Cc2ccccc2)c(C(C)C)c(=O)[nH]c1=O,Recombinant,RT-V106A P225H,cytopathic effect,195
CN(C)C(=O)Oc1nsnc1-c1ccccc1Cl,IIIB-R (RT-Y181C),RT-Y181C,cytopathic effect / MTT,>368
Cc1ccnc2c1NC(=O)c1cccnc1N2C1CC1,NL4-3,RT A62V 69SS K70R E79K V118I M184V E203K L210W T215Y,cytopathic effect,0.167

Again, the opening 5 rows:

structure,strain or isolate,changes,method,value
O=c1[nH]cnc2c1ncn2[C@H]1CC[C@@H](CO)O1,118(RT-L100I),RT-L100I,cytopathic effect / XTT,0.802
CC(C)CN(C[C@@H](O)[C@H](Cc1ccccc1)NC(=O)[C@H](CC(N)=O)NC(=O)c1ccc2ccccc2n1)C(=O)NC(C)(C)C,NL4-3,PR-L10R,p24,0.5
CNc1cccc2c1nc(-c1c(F)cccc1F)n2Cc1c(F)cccc1F,-,RT-Y181C,cytopathic effect / MTT,1.58
CC(C)[C@H](NC(=O)N(C)Cc1ccccn1)C(=O)N[C@@H](Cc1ccccc1)[C@H](O)[C@H](O)[C@H](Cc1ccccc1)NC(=O)[C@@H](NC(=O)N(C)Cc1ccccn1)C(C)C,NL4-3,PR-M46I,p24,1
CCc1cc(CCc2nc3ccccc3o2)c(=O)[nH]c1C,IIIB-R (RT-Y181C),RT-Y181C,cytopathic effect / MTT,8550

Blank or dashed fields: not listed here. Rows are shuffled and stem from different studies.